The record followed here is patent US20120231024A1.

The target in this assay is prostate specific membrane antigen (PSMA), native, on the cell surface (human) (UniProt Q04609). Kind of assay: cell-based or functional assay.

As to “recombinant immunotoxin A5-PE40 (from UniProt P11439 278-638)”, the cytotoxic effect on LNCaP cells (WST assay), IC50 came out at 0.09 nM.

“recombinant immunotoxin E8-PE40 (from UniProt P11439 278-638)” yielded a cytotoxic effect on LNCaP cells (WST assay), IC50 of 0.05 nM.
